Reference: PubChem BioAssay AID1259414 (Drosophila RNAi Screening Center, 2018)
The deposit covers about 24,000 reagents; below is a random part of those with a known target gene and a result. Over the whole deposit, about 1,210 (5%) got an active call. 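Inactive calls also include excluded dsRNAs with several or no targets, genes unexpressed in JW18, and well A1, regardless of score.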

Assay: 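Host factors increasing or decreasing Wolbachia levels in cultured fly cells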 (primary screen)
Cell system: Drosophila JW18 cells infected with Wolbachia
Reagent: long dsRNA against Drosophila genes, 0.25 µg dsRNA per well of a 384-well plate
Time to read-out: 5 days
Conditions: cells persistently infected with Wolbachia before knock-down; no added drug
Measurement: 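Imaged fluorescence in situ signal for Wolbachia 23S rRNA per DAPI-counted host cell, given as a robust z-score within each plate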
Reading the numbers: Wolbachia per cell robust z: higher = more Wolbachia per host cell than the plate typical
Active means: 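Hit when robust z is 1.5 or more, or -1.5 or less, in at least two of three replicates; excludes dsRNAs with several or no targets, genes not expressed in JW18 and well A1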

Grx1 (Glutaredoxin 1) [DRSC10727]: Wolbachia per cell robust z, rep 1 = 0.00289; Wolbachia per cell robust z, rep 2 = 0.767; Wolbachia per cell robust z, rep 3 = 0.64; outcome = inactive
maca [DRSC15738]: Wolbachia per cell robust z, rep 1 = 1.18; Wolbachia per cell robust z, rep 2 = 1.73; Wolbachia per cell robust z, rep 3 = 2.7; outcome = inactive
Abl (Abl tyrosine kinase) [DRSC09661]: Wolbachia per cell robust z, rep 1 = -0.247; Wolbachia per cell robust z, rep 2 = -0.231; Wolbachia per cell robust z, rep 3 = -0.942; outcome = inactive
Abl (Abl tyrosine kinase) [DRSC23306]: Wolbachia per cell robust z, rep 1 = 0.14; Wolbachia per cell robust z, rep 2 = -0.253; Wolbachia per cell robust z, rep 3 = -0.0188; outcome = inactive
Osi14 (Osiris 14) [DRSC12368]: Wolbachia per cell robust z, rep 1 = 0.306; Wolbachia per cell robust z, rep 2 = -1.51; Wolbachia per cell robust z, rep 3 = -0.0966; outcome = inactive
Osi14 (Osiris 14) [DRSC26397]: Wolbachia per cell robust z, rep 1 = 1.03; Wolbachia per cell robust z, rep 2 = 0.737; Wolbachia per cell robust z, rep 3 = -0.838; outcome = inactive
nrm (neuromusculin) [DRSC11599]: Wolbachia per cell robust z, rep 1 = -0.117; Wolbachia per cell robust z, rep 2 = -0.482; Wolbachia per cell robust z, rep 3 = 0.13; outcome = inactive
nrm (neuromusculin) [DRSC11897]: Wolbachia per cell robust z, rep 1 = -0.609; Wolbachia per cell robust z, rep 2 = -2.05; Wolbachia per cell robust z, rep 3 = 0.404; outcome = inactive
nrm (neuromusculin) [DRSC38832]: Wolbachia per cell robust z, rep 1 = 1.07; Wolbachia per cell robust z, rep 2 = -0.749; Wolbachia per cell robust z, rep 3 = -0.453; outcome = inactive
fne (found in neurons) [DRSC20332]: Wolbachia per cell robust z, rep 1 = 1.15; Wolbachia per cell robust z, rep 2 = 0.499; Wolbachia per cell robust z, rep 3 = 1.37; outcome = inactive
fne (found in neurons) [DRSC25027]: Wolbachia per cell robust z, rep 1 = -0.569; Wolbachia per cell robust z, rep 2 = -1.11; Wolbachia per cell robust z, rep 3 = 0.0662; outcome = inactive
fne (found in neurons) [DRSC25129]: Wolbachia per cell robust z, rep 1 = 0.655; Wolbachia per cell robust z, rep 2 = -1.09; Wolbachia per cell robust z, rep 3 = 0.194; outcome = inactive
fne (found in neurons) [DRSC40526]: Wolbachia per cell robust z, rep 1 = 0.356; Wolbachia per cell robust z, rep 2 = 1.23; Wolbachia per cell robust z, rep 3 = -0.862; outcome = inactive
CG16719 [DRSC10222]: Wolbachia per cell robust z, rep 1 = -4.94; Wolbachia per cell robust z, rep 2 = 0.762; Wolbachia per cell robust z, rep 3 = -4.34; outcome = active
shg (shotgun) [DRSC04714]: Wolbachia per cell robust z, rep 1 = 0.418; Wolbachia per cell robust z, rep 2 = -2.51; Wolbachia per cell robust z, rep 3 = 1.01; outcome = inactive
shg (shotgun) [DRSC27751]: Wolbachia per cell robust z, rep 1 = -1.82; Wolbachia per cell robust z, rep 2 = 0.603; Wolbachia per cell robust z, rep 3 = 0.16; outcome = inactive
shg (shotgun) [DRSC38948]: Wolbachia per cell robust z, rep 1 = -2.5; Wolbachia per cell robust z, rep 2 = 0.0821; Wolbachia per cell robust z, rep 3 = 0.493; outcome = inactive
